Anti-infective test results gathered from many reports (values: NIAID ChemDB through PubChem).

Shared fields: host cell toxicity; cell line: MT-2; measure: CC50

Rows are shuffled and stem from different studies. Blank or dashed fields: not listed here. CCn is the concentration with n% toxicity to the cells.

smiles	method	value
CC(C)Nc1cccnc1N1CCN(C(=O)c2cc3cc(NS(C)(=O)=O)ccc3[nH]2)CC1	neutral red	1654 µM
CC(C)(C)NC(=O)[C@@H]1C[C@@H]2CCCC[C@@H]2CN1C[C@@H](O)[C@H](Cc1ccccc1)NC(=O)[C@H](CC(N)=O)NC(=O)c1ccc2ccccc2n1		>10 µM
COc1cc(C[C@@]2(O)C(=O)OC[C@@H]2Cc2ccc(OC)c(OC)c2)ccc1O		1.12 µg/mL
CC(C)=CCN1Cc2cccc3[nH]c(=S)n(c23)C[C@@H]1C		>50 µM
CN1CCC2(CC1)C(=O)N(c1ccccc1)c1ccccc12		55 µM
CN1CCN(C2=c3cc(O)ccc3=Nc3ccc(Cl)cc3N2O)CC1		>100 µg/mL
Cc1c(O)cccc1C(=O)N[C@@H](CSc1ccccc1)[C@H](O)CN1C[C@H]2CCCC[C@H]2C[C@H]1C(=O)NC(C)(C)CO		92.6 µM
Cc1ccnc2c1NC(=O)c1cccnc1N2C1CC1	neutral red	743 µM
CC(C)OC(=O)OCOP(=O)(CO[C@H](C)Cn1cnc2c(N)ncnc21)OCOC(=O)OC(C)C	XTT / absorbance	50 µM
CSc1ccc2c(c1)N=C(N1CCNCC1)c1ccccc1N2		17 µg/mL
O=C(O)C1(O)C[C@@H](O)C(O)[C@H](O)C1		>625 µg/mL
Cc1cn([C@H]2C=C[C@@H](CO)O2)c(=O)[nH]c1=O		286 µM
CC(C)OC(=O)OCOP(=O)(CO[C@H](C)Cn1cnc2c(N)ncnc21)OCOC(=O)OC(C)C		22 µM
Nc1cccnc1N1CCN(C(=O)c2cc3ccccc3[nH]2)CC1		15 µM
COc1cc([C@@H]2c3cc4c(cc3[C@@H](O[C@@H]3O[C@@H]5CO[C@@H](C)O[C@H]5[C@H](O)[C@H]3O)[C@H]3COC(=O)[C@H]23)OCO4)cc(OC)c1O		0.16 µg/mL
Nc1ccn([C@H]2CC[C@@H](CO)O2)c(=O)n1	neutral red	119 µM
Nc1c(S(=O)(=O)c2ccc(Cl)cc2)cc2c(=O)n3ccccc3nc2[n+]1C1CCCCC1	ATP / luminescence	>100 µM
CCc1c([Se]c2ccccn2)n(COCc2ccccc2)c(=O)[nH]c1=O		24 ± 0.1 µM
Cc1cn([C@H]2C[C@H](N=[N+]=[N-])[C@@H](CO)O2)c(=O)[nH]c1=O	neutral red	349 µM
O=C(CCCN1CCC(O)(c2ccc(Cl)cc2)CC1)c1ccc(F)cc1		>20 µg/mL
O=C(CCc1ccccc1)[Se]c1ccccc1	MTT	34.7 µM
CN(CCO)CC(O)Cn1c2ccc(Cl)cc2c2cc(Cl)ccc21	ATP / luminescence	16.2 µM
C[C@@H]1O[C@@H]2OCCC[C@@H]2[C@@H]1OC(=O)N[C@@H](Cc1ccccc1)[C@H](O)CN1C[C@H]2CCCC[C@H]2C[C@H]1C(=O)NC(C)(C)C	MTT	32.9 µM
Nc1ccc(CC2(Cc3ccncc3)C(=O)N(c3ccccc3)c3ccccc32)cc1		55 µM
C[C@H](Cn1cnc2c(N)ncnc21)OCP(=O)(O)O		>500 µM
Nc1ccn([C@H]2CC[C@@H](CO)O2)c(=O)n1		>32 µM
CC(C)Nc1cccnc1N1CCN(C(=O)c2cc3ccccc3[nH]2)CC1		28 µM
Nc1nc(NC2CC2)c2ncn([C@H]3CC[C@@H](CO)O3)c2n1		>20 µM
COc1ccc(S(=O)(=O)N(CC(C)C)C[C@@H](O)[C@H](Cc2ccccc2)NC(=O)O[C@H]2CO[C@H]3OCC(F)(F)[C@H]32)cc1		17.5 µM
O=c1[nH]cnc2c1ncn2[C@H]1CC[C@@H](CO)O1	neutral red	985 µM
CN1CC=C(CC2(CC3=CCN(C)CC3)C(=O)N(Cc3ccccc3)c3ccccc32)CC1		109 µM
CC(C)OC(=O)[C@H](C)N[P@](=O)(CO[C@H](C)Cn1cnc2c(N)ncnc21)Oc1ccccc1	XTT / absorbance	40 µM
CC(C)(C)NC(=O)[C@@H]1CN(Cc2cccnc2)CCN1C[C@@H](O)C[C@@H](Cc1ccccc1)C(=O)N[C@H]1c2ccccc2C[C@H]1O		>10 µM
CN1CCCC(CCC2(CCC3CCCN(C)C3)C(=O)N(c3ccccc3)c3ccccc32)C1		41 µM
O=c1ccc2ccccc2[se]1	MTT	>100 µM
Clc1ccc2c(c1)N=C(N1CCNCC1)c1ccccc1N2		7 µg/mL
Nc1nc(N)c2ncn([C@H]3CC[C@@H](CO)O3)c2n1		>20 µM
Nc1nc(N)c2ncn([C@H]3CO[C@@H](CO)O3)c2n1	XTT	>1000 µM
O=C1CN=C(c2ccc[nH]2)c2cc(Cl)ccc2N1		1.6 µM
COC(=O)C(C)NP(=O)(OC[C@@H]1C=C[C@H](C2C=Nc3c2nc(N)[nH]c3=O)O1)Oc1ccccc1	MTT	>100 µM
Cc1cn([C@H]2C[C@H](N=[N+]=[N-])[C@@H](CO)O2)c(=O)[nH]c1=O		159 µg/mL
COC(=O)C(=O)OC1(C(=O)O)C[C@@H](OC(=O)/C=C/c2ccc(O)c(O)c2)C(O)[C@H](OC(=O)/C=C/c2ccc(O)c(O)c2)C1		>350 µg/mL
CC(C)CN(C[C@@H](O)[C@H](Cc1ccccc1)NC(=O)O[C@H]1CCOC1)S(=O)(=O)c1ccc(N)cc1		>100 µM
O=C1N(c2ccccc2)c2ccccc2C1(Cc1ncc[nH]1)Cc1ncc[nH]1		135 µM
Nc1ncnc2c1ncn2[C@@H]1C=C[C@H](OCP(=O)(O)O)O1		>1000 µM
Cn1nc(NS(C)(=O)=O)c2c(Cl)ccc(-n3c([C@H](Cc4cc(F)cc(F)c4)NC(=O)Cn4nc(C(F)F)c5c4C(F)(F)[C@@H]4C[C@H]54)nc4cc(OCC5CCC5)ccc4c3=O)c21	XTT	>1 µM
CCCCOC(=O)[C@H](C)NP(=O)(CO[C@@H]1C=C(F)[C@H](n2cnc3c(N)ncnc32)O1)N[C@@H](C)C(=O)OCCCC		>50 µM
CN1CCN(C2=Nc3cc(O)ccc3Nc3ccccc32)CC1		>100 µg/mL
CN(C)CCOc1cc2c(c3ccccc13)-c1ccccc1C2=O	ATP / luminescence	28.1 µM
O=C1N(c2ccccc2)c2ccccc2C1(CC1=CCN(CC2CC2)CC1)CC1=CCN(CC2CC2)CC1		>84 µM
Nc1ccn([C@H]2CC[C@@H](CO)O2)c(=O)n1		32 µM
Nc1ncnc2c1ncn2[C@H]1C=C[C@@H](OCP(=O)(O)O)O1		>1000 µM
C[C@H](Cn1cnc2c(N)ncnc21)OCP(=O)(OCOC(=O)NC(C)(C)C)OCOC(=O)NC(C)(C)C		10 µM
COc1cc([C@@H]2c3cc4c(cc3[C@H](O)[C@H]3COC(=O)[C@@H]23)OCO4)cc(OC)c1O		>0.01 µg/mL
CC(C)CN(C[C@@H](O)[C@H](Cc1ccccc1)NC(=O)O[C@H]1[C@H]2CCCO[C@H]2O[C@@H]1C)S(=O)(=O)c1ccc(N)cc1	MTT	40 µM
Cc1cn([C@H]2C[C@H](N=[N+]=[N-])[C@@H](CO)O2)c(=O)[nH]c1=O		100 µM
Nc1ccn([C@H]2CC[C@@H](CO)O2)c(=O)n1		176.3 µM
CC(C)CN(C[C@@H](O)[C@H](Cc1ccc(F)cc1)NC(=O)O[C@H]1CCO[C@H]2OCC[C@H]21)S(=O)(=O)c1ccc2nc(NC(C)C)sc2c1	MTT	2.7 µM
Nc1nc(N)c2ncn([C@H]3CO[C@@H](CO)O3)c2n1		>1000 µM
O=C(/C=C/C=C/c1ccccc1)[Se]c1ccccc1	MTT	29.5 µM
Nc1nc2c(ncn2[C@H]2CO[C@@H](CO)O2)c(=O)[nH]1		>500 µM
CCc1c(Sc2ccccn2)n(COCc2ccccc2)c(=O)[nH]c1=O		10 ± 1 µM
CCCCCCCCN1C(=O)C(CC2=CCN(C)CC2)(CC2=CCN(C)CC2)c2ccccc21		36 µM
Nc1nc2c(ncn2[C@H]2CO[C@@H](CO)O2)c(=O)[nH]1		>500 µM
O=c1cc(-c2ccc(O)c(O)c2)oc2cc(O[C@@H]3O[C@H](CO)[C@@H](O)[C@H](O)[C@H]3OS(=O)(=O)O)cc(O)c12		>800 µM
CNc1nc(N)nc2c1ncn2[C@H]1CC[C@@H](CO)O1		>20 µM
O=C(/C=C/C=C/c1ccc(Br)cc1)[Se]c1ccccc1	MTT	29.5 µM
COc1cc(C[C@H]2C(=O)OC[C@@H]2Cc2ccc(OC)c(OC)c2)ccc1O		0.63 µg/mL
O=C1CCc2ccccc2[Se]1	MTT	>100 µM
CC(C)CN(C[C@@H](O)[C@H](Cc1ccccc1)NC(=O)O[C@H]1CCOC1)S(=O)(=O)c1ccc(N)cc1	MTT	45.5 µM

Repeating the final 10 entries:

smiles,method,value
Nc1nc2c(ncn2[C@H]2CO[C@@H](CO)O2)c(=O)[nH]1,,>500 µM
CCc1c(Sc2ccccn2)n(COCc2ccccc2)c(=O)[nH]c1=O,,10 ± 1 µM
CCCCCCCCN1C(=O)C(CC2=CCN(C)CC2)(CC2=CCN(C)CC2)c2ccccc21,,36 µM
Nc1nc2c(ncn2[C@H]2CO[C@@H](CO)O2)c(=O)[nH]1,,>500 µM
O=c1cc(-c2ccc(O)c(O)c2)oc2cc(O[C@@H]3O[C@H](CO)[C@@H](O)[C@H](O)[C@H]3OS(=O)(=O)O)cc(O)c12,,>800 µM
CNc1nc(N)nc2c1ncn2[C@H]1CC[C@@H](CO)O1,,>20 µM
O=C(/C=C/C=C/c1ccc(Br)cc1)[Se]c1ccccc1,MTT,29.5 µM
COc1cc(C[C@H]2C(=O)OC[C@@H]2Cc2ccc(OC)c(OC)c2)ccc1O,,0.63 µg/mL
O=C1CCc2ccccc2[Se]1,MTT,>100 µM
CC(C)CN(C[C@@H](O)[C@H](Cc1ccccc1)NC(=O)O[C@H]1CCOC1)S(=O)(=O)c1ccc(N)cc1,MTT,45.5 µM